The chains behind the UniProt entries cited, without tags or fusion partners. Residues count along the entry.
UniProt P04757, 26-499 limits assumed: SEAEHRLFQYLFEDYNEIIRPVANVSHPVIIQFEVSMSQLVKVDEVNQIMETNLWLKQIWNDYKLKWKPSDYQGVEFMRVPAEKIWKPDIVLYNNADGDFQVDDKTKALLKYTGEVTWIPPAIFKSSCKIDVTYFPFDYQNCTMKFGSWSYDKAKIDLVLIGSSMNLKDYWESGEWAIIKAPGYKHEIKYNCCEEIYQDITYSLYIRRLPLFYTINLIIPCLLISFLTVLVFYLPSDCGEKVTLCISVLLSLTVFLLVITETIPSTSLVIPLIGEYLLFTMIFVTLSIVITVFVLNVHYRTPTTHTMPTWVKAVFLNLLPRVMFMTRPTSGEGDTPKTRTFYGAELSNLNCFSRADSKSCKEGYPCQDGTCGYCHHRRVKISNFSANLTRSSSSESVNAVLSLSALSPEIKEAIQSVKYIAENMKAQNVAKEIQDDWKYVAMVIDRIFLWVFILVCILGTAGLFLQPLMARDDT
UniProt P12390, 25-500 limits assumed: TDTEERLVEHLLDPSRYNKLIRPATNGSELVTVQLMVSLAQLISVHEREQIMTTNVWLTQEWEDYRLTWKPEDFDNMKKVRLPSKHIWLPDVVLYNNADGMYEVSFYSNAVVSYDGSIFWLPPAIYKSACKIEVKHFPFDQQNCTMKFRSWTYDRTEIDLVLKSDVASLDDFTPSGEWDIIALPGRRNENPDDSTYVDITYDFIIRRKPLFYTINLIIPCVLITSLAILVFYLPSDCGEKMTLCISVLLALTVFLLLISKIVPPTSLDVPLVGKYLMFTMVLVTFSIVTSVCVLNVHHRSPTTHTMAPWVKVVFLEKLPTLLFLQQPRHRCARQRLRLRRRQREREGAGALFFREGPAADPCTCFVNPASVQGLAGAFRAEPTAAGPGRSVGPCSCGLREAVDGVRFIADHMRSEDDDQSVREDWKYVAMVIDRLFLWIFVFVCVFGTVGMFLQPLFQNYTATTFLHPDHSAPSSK
UniProt P12391, 31-464 limits assumed: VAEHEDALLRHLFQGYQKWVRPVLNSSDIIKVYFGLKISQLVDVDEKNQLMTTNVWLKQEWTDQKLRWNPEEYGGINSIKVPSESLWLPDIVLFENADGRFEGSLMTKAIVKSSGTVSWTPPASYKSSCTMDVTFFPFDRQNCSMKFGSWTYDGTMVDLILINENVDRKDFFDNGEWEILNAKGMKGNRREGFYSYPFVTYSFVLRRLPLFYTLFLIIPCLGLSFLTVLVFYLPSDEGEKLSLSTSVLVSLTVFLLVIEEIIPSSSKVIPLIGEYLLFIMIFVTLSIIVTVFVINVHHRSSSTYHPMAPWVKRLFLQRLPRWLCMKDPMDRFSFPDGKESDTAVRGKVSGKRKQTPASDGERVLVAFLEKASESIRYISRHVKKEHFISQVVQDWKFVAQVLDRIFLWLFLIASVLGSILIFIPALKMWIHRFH
UniProt P43143, 31-493 limits assumed: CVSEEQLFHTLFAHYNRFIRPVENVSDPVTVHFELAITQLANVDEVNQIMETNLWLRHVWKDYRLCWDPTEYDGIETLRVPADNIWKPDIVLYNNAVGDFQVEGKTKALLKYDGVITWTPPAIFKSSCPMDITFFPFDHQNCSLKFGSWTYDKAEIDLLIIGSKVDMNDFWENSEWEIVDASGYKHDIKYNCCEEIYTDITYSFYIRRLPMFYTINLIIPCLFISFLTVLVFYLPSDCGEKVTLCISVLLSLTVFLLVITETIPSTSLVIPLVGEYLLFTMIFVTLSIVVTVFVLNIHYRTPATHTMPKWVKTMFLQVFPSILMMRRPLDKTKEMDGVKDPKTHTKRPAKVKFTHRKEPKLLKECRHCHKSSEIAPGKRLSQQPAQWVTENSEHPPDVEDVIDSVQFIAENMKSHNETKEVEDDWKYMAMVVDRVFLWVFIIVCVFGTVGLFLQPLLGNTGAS
UniProt P43144, 26-479 limits assumed: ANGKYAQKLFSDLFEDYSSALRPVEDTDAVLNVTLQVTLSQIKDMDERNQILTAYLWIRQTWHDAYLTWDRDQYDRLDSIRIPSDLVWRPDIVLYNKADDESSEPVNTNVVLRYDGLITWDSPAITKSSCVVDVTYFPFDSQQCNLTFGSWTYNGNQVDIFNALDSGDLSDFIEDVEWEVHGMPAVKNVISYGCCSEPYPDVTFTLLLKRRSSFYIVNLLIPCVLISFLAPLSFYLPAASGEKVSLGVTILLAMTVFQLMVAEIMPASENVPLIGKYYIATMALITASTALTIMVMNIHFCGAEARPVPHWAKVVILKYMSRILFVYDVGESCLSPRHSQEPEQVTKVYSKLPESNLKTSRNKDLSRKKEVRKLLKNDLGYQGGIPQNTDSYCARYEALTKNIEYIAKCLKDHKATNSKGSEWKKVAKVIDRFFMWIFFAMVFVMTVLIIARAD
UniProt Q9JLB5, 25-447 limits assumed: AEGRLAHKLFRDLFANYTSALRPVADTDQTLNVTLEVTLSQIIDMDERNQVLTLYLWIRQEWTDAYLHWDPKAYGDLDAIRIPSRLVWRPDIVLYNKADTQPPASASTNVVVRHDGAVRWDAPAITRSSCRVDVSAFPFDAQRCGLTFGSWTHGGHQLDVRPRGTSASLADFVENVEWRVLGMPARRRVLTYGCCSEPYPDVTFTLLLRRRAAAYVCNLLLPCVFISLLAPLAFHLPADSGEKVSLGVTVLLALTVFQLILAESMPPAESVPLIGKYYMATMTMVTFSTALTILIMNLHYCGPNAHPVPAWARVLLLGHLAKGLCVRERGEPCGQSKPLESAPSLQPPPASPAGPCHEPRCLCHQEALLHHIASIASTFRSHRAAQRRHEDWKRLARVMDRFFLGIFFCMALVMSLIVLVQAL
UniProt P12392, 21-495 limits assumed: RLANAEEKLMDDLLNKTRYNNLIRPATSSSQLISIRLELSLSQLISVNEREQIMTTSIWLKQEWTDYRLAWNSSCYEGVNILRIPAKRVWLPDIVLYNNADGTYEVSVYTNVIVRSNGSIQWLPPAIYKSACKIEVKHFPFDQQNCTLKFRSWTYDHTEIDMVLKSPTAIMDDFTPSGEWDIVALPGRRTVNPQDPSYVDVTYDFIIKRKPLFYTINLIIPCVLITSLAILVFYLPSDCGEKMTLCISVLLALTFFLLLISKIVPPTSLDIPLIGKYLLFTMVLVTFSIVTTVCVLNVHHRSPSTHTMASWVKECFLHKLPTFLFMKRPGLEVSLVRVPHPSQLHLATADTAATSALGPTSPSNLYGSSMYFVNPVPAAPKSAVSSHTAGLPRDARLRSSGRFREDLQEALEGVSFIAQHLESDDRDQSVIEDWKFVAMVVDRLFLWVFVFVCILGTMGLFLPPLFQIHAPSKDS
UniProt P09483, 31-630 limits assumed: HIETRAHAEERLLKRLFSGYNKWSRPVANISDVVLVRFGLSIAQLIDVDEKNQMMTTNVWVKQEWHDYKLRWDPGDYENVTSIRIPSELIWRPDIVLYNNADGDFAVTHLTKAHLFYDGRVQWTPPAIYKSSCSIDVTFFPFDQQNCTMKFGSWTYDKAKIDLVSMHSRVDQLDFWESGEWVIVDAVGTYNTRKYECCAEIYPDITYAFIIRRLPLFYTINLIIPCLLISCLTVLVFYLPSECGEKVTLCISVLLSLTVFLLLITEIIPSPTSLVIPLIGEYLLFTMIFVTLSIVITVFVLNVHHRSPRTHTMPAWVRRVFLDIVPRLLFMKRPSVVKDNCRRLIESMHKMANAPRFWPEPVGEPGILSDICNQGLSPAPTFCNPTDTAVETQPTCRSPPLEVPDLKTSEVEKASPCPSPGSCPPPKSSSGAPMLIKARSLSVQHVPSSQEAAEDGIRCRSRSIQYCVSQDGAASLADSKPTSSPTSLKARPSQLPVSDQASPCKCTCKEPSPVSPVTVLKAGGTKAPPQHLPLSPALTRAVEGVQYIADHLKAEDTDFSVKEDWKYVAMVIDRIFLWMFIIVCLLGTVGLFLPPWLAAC
UniProt Q05941, 23-502 limits assumed: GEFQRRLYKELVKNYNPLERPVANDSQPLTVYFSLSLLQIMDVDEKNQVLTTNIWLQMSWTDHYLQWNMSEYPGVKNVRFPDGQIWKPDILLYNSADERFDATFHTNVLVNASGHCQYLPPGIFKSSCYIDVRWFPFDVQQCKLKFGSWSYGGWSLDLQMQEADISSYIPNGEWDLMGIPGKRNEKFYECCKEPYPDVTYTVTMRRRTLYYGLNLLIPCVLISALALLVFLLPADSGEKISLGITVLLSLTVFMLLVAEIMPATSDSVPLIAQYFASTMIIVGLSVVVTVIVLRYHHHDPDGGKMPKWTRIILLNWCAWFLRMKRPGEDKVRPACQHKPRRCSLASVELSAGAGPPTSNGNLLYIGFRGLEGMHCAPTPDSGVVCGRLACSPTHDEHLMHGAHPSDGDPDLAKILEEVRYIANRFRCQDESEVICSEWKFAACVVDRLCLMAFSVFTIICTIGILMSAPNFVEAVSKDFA

According to ChEMBL document CHEMBL4364262 (J Med Chem, 2019):

Experiments:
[1] = target: T1, Nicotinic acetylcholine receptor alpha6/alpha3/beta2/beta3 (Rattus norvegicus, UniProt P04757+P12390+P12391+P43143)
[2] = target: T2, Neuronal acetylcholine receptor; alpha3/beta2 (Rattus norvegicus, UniProt P04757+P12390)
[3] = target: T1, Nicotinic acetylcholine receptor alpha6/alpha3/beta2/beta3; remark: listed apart in the source
[4] = target: T2, Neuronal acetylcholine receptor; alpha3/beta2; remark: listed apart in the source
[5] = target: Nicotinic acetylcholine receptor alpha9/alpha10 (Rattus norvegicus, UniProt P43144+Q9JLB5)
[6] = target: Neuronal acetylcholine receptor; alpha3/beta4 (Rattus norvegicus, UniProt P04757+P12392)
[7] = target: Neuronal acetylcholine receptor; alpha4/beta2 (Rattus norvegicus, UniProt P09483+P12390)
[8] = target: Neuronal acetylcholine receptor subunit alpha-7 (Rattus norvegicus, UniProt Q05941)

`CC[C@H](C)[C@@H]1NC(=O)[C@H](Cc2cnc[nH]2)NC(=O)[C@@H]2CSSC[C@H](NC(=O)CN)C(=O)N[C@@H](CSSC[C@@H](C(N)=O)NC(=O)[C@H](CC(C)C)NC(=O)[C@H](CCC(=O)O)NC(=O)[C@@H]3CCCN3C(=O)[C@H](Cc3cnc[nH]3)NC(=O)[C@H](CCCC(=O)O)NC1=O)C(=O)N[C@@H](CO)C(=O)N[C@@H](Cc1cnc[nH]1)C(=O)N1CCC[C@H]1C(=O)N[C@@H](C)C(=O)N2` showed an IC50 [1] of 155 nM.
In the case of `CC(C)C[C@@H]1NC(=O)[C@H](CO)NC(=O)[C@@H]2CSSC[C@@H](C(N)=O)NC(=O)[C@H](Cc3ccc(O)cc3)NC(=O)[C@H](CC(=O)O)NC(=O)[C@@H]3CCCN3C(=O)[C@H](CC(N)=O)NC(=O)[C@H](CC(N)=O)NC(=O)[C@H](C)NC(=O)[C@H](C)NC(=O)[C@H](CSSC[C@H](NC(=O)CN)C(=O)N2)NC(=O)[C@@H]2CCCN2C(=O)[C@@H]2CCCN2C1=O`, the IC50 [2] is reported as 7.7 nM and the IC50 [3] is reported as 10.9 nM.
With `CC(C)C[C@@H]1NC(=O)[C@H](CCCNC(=N)N)NC(=O)[C@@H]2CCCN2C(=O)[C@H](Cc2cnc[nH]2)NC(=O)[C@H](CC(N)=O)NC(=O)[C@H](C(C)C)NC(=O)[C@H](CO)NC(=O)[C@@H]2CSSC[C@H](NC(=O)CN)C(=O)N[C@@H](CSSC[C@@H](C(N)=O)NC1=O)C(=O)N[C@@H](CO)C(=O)N[C@@H](Cc1cnc[nH]1)C(=O)N1CCC[C@H]1C(=O)N[C@@H](C)C(=O)N2` the IC50 [4] was 109 nM and the IC50 [1] was 7.4 nM.
Work on `CC(C)C[C@@H]1NC(=O)[C@H](CCC(N)=O)NC(=O)[C@@H]2CCCN2C(=O)[C@H](Cc2cnc[nH]2)NC(=O)[C@H](CC(N)=O)NC(=O)[C@H](C(C)C)NC(=O)[C@H](CO)NC(=O)[C@@H]2CSSC[C@H](NC(=O)CN)C(=O)N[C@@H](CSSC[C@@H](C(N)=O)NC1=O)C(=O)N[C@@H](CO)C(=O)N[C@@H](Cc1cnc[nH]1)C(=O)N1CCC[C@H]1C(=O)N[C@@H](C)C(=O)N2` yielded an IC50 [4] of 77.1 nM.
For `CC[C@H](C)[C@@H]1NC(=O)[C@H](CCC(=O)O)NC(=O)[C@@H]2CCCN2C(=O)[C@H](Cc2cnc[nH]2)NC(=O)[C@H](CC(N)=O)NC(=O)[C@H]([C@@H](C)CC)NC(=O)[C@H](Cc2cnc[nH]2)NC(=O)[C@@H]2CSSC[C@H](NC(=O)CN)C(=O)N[C@@H](CSSC[C@@H](C(N)=O)NC1=O)C(=O)N[C@@H](CO)C(=O)N[C@@H](Cc1cnc[nH]1)C(=O)N1CCC[C@H]1C(=O)N[C@@H](C)C(=O)N2`, the IC50 [1] was 0.86 nM.
With `CC[C@H](C)[C@@H]1NC(=O)[C@H](Cc2cnc[nH]2)NC(=O)[C@@H]2CSSC[C@H](NC(=O)CN)C(=O)N[C@@H](CSSC[C@@H](C(N)=O)NC(=O)[C@H](CC(C)C)NC(=O)[C@H](CCC(=O)O)NC(=O)[C@@H]3CCCN3C(=O)[C@H](Cc3cnc[nH]3)NC(=O)[C@H](CCCCC(=O)O)NC1=O)C(=O)N[C@@H](CO)C(=O)N[C@@H](Cc1cnc[nH]1)C(=O)N1CCC[C@H]1C(=O)N[C@@H](C)C(=O)N2` the IC50 [1] was 22.3 nM.
`CC(C)C[C@@H]1NC(=O)[C@H](CCC(=O)O)NC(=O)[C@@H]2CCCN2C(=O)[C@H](Cc2cnc[nH]2)NC(=O)[C@H](CC(N)=O)NC(=O)[C@H](C(C)C)NC(=O)[C@H](CO)NC(=O)[C@@H]2CSSC[C@H](NC(=O)CN)C(=O)N[C@@H](CSSC[C@@H](C(N)=O)NC1=O)C(=O)N[C@@H](CO)C(=O)N[C@@H](Cc1cnc[nH]1)C(=O)N1CCC[C@H]1C(=O)N[C@@H](C)C(=O)N2` showed an IC50 [5] of 30 nM.
Work on `CC[C@H](C)[C@@H]1NC(=O)[C@H](CCC(=O)O)NC(=O)[C@@H]2CCCN2C(=O)[C@H](Cc2cnc[nH]2)NC(=O)[C@H](CCCCC(=O)O)NC(=O)[C@H]([C@@H](C)CC)NC(=O)[C@H](Cc2cnc[nH]2)NC(=O)[C@@H]2CSSC[C@H](NC(=O)CN)C(=O)N[C@@H](CSSC[C@@H](C(N)=O)NC1=O)C(=O)N[C@@H](CO)C(=O)N[C@@H](Cc1cnc[nH]1)C(=O)N1CCC[C@H]1C(=O)N[C@@H](C)C(=O)N2` yielded an IC50 [1] of 58.2 nM.
`CCCC[C@@H]1NC(=O)[C@H](Cc2cnc[nH]2)NC(=O)[C@@H]2CSSC[C@H](NC(=O)CN)C(=O)N[C@@H](CSSC[C@@H](C(N)=O)NC(=O)[C@H](CC(C)C)NC(=O)[C@H](CCC(=O)O)NC(=O)[C@@H]3CCCN3C(=O)[C@H](Cc3cnc[nH]3)NC(=O)[C@H](CCCCC(=O)O)NC1=O)C(=O)N[C@@H](CO)C(=O)N[C@@H](Cc1cnc[nH]1)C(=O)N1CCC[C@H]1C(=O)N[C@@H](C)C(=O)N2` was tested, and the IC50 [6] was 168 nM, the IC50 [7] was 1930 nM and the IC50 [8] was 18.7 nM.
`CCCC[C@@H]1NC(=O)[C@H](Cc2cnc[nH]2)NC(=O)[C@@H]2CSSC[C@H](NC(=O)CN)C(=O)N[C@@H](CSSC[C@@H](C(N)=O)NC(=O)[C@H]([C@@H](C)CC)NC(=O)[C@H](CCC(=O)O)NC(=O)[C@@H]3CCCN3C(=O)[C@H](Cc3cnc[nH]3)NC(=O)[C@H](CCCCC(=O)O)NC1=O)C(=O)N[C@@H](CO)C(=O)N[C@@H](Cc1cnc[nH]1)C(=O)N1CCC[C@H]1C(=O)N[C@@H](C)C(=O)N2` gave an IC50 [6] of 380 nM, an IC50 [7] of 2070 nM and an IC50 [8] of 15 nM.
For `CC[C@H](C)[C@@H]1NC(=O)[C@H](Cc2cnc[nH]2)NC(=O)[C@@H]2CSSC[C@H](NC(=O)CN)C(=O)N[C@@H](CSSC[C@@H](C(N)=O)NC(=O)[C@H](CC(C)C)NC(=O)[C@H](CCC(=O)O)NC(=O)[C@@H]3CCCN3C(=O)[C@H](Cc3cnc[nH]3)NC(=O)[C@H](CC(N)=O)NC1=O)C(=O)N[C@@H](CO)C(=O)N[C@@H](Cc1cnc[nH]1)C(=O)N1CCC[C@H]1C(=O)N[C@@H](C)C(=O)N2`, the IC50 [1] was 1.04 nM.
For `CC[C@H](C)[C@@H]1NC(=O)[C@H](Cc2cnc[nH]2)NC(=O)[C@@H]2CSSC[C@H](NC(=O)CN)C(=O)N[C@@H](CSSC[C@@H](C(N)=O)NC(=O)[C@H](CC(C)C)NC(=O)[C@H](CCC(=O)O)NC(=O)[C@@H]3CCCN3C(=O)[C@H](Cc3cnc[nH]3)NC(=O)[C@H](CCCCCC(=O)O)NC1=O)C(=O)N[C@@H](CO)C(=O)N[C@@H](Cc1cnc[nH]1)C(=O)N1CCC[C@H]1C(=O)N[C@@H](C)C(=O)N2`, the IC50 [1] was 50.3 nM.
For `CC[C@H](C)[C@@H]1NC(=O)[C@H](Cc2cnc[nH]2)NC(=O)[C@@H]2CSSC[C@H](NC(=O)CN)C(=O)N[C@@H](CSSC[C@@H](C(N)=O)NC(=O)[C@H](CC(C)C)NC(=O)[C@H](CCC(=O)O)NC(=O)[C@@H]3CCCN3C(=O)[C@H](Cc3cnc[nH]3)NC(=O)[C@H](CC(=O)O)NC1=O)C(=O)N[C@@H](CO)C(=O)N[C@@H](Cc1cnc[nH]1)C(=O)N1CCC[C@H]1C(=O)N[C@@H](C)C(=O)N2`, the IC50 [1] was 19.9 nM.
Work on `CCCC[C@@H]1NC(=O)[C@H](CCC(=O)O)NC(=O)[C@@H]2CCCN2C(=O)[C@H](Cc2cnc[nH]2)NC(=O)[C@H](CC(N)=O)NC(=O)[C@H](C(C)C)NC(=O)[C@H](CO)NC(=O)[C@@H]2CSSC[C@H](NC(=O)CN)C(=O)N[C@@H](CSSC[C@@H](C(N)=O)NC1=O)C(=O)N[C@@H](CO)C(=O)N[C@@H](Cc1cnc[nH]1)C(=O)N1CCC[C@H]1C(=O)N[C@@H](C)C(=O)N2` yielded an IC50 [4] of 21.1 nM and an IC50 [1] of 13.2 nM.
In the case of `CC[C@H](C)[C@@H]1NC(=O)CNC(=O)[C@H](C)NC(=O)[C@@H]2CSSC[C@H](NC(=O)CN)C(=O)N[C@@H](CSSC[C@@H](C(N)=O)NC(=O)[C@H](CC(C)C)NC(=O)[C@H](CCC(=O)O)NC(=O)[C@H](CCC(=O)O)NC(=O)[C@H](Cc3cnc[nH]3)NC1=O)C(=O)N[C@@H](C)C(=O)N[C@@H](CCCNC(=N)N)C(=O)N[C@@H](C)C(=O)N[C@@H](C)C(=O)N2`, the IC50 [2] is reported as 9.8 nM and the IC50 [3] is reported as 84.4 nM.
`CC[C@H](C)[C@@H]1NC(=O)[C@H](Cc2cnc[nH]2)NC(=O)[C@@H]2CSSC[C@H](NC(=O)CN)C(=O)N[C@@H](CSSC[C@@H](C(N)=O)NC(=O)[C@H](CC(C)C)NC(=O)[C@H](CCC(=O)O)NC(=O)[C@@H]3CCCN3C(=O)[C@H](Cc3cnc[nH]3)NC(=O)[C@H](CCC(=O)O)NC1=O)C(=O)N[C@@H](CO)C(=O)N[C@@H](Cc1cnc[nH]1)C(=O)N1CCC[C@H]1C(=O)N[C@@H](C)C(=O)N2` gave an IC50 [1] of 16.2 nM.
Work on `CC[C@H](C)[C@@H]1NC(=O)[C@H](Cc2cnc[nH]2)NC(=O)[C@@H]2CCCN2C(=O)[C@H](CC(N)=O)NC(=O)[C@H](CC(N)=O)NC(=O)[C@H](C(C)C)NC(=O)[C@H](CC(N)=O)NC(=O)[C@@H]2CSSC[C@H](NC(=O)CN)C(=O)N[C@@H](CSSC[C@@H](C(=O)NCC(N)=O)NC1=O)C(=O)N[C@@H](CO)C(=O)N[C@@H](Cc1cnc[nH]1)C(=O)N1CCC[C@H]1C(=O)N[C@@H](C)C(=O)N2` yielded an IC50 [4] of 11 nM and an IC50 [1] of 201 nM.
With `CC(C)C[C@@H]1NC(=O)[C@H](CCCC(=O)O)NC(=O)[C@@H]2CCCN2C(=O)[C@H](Cc2cnc[nH]2)NC(=O)[C@H](CC(N)=O)NC(=O)[C@H](C(C)C)NC(=O)[C@H](CO)NC(=O)[C@@H]2CSSC[C@H](NC(=O)CN)C(=O)N[C@@H](CSSC[C@@H](C(N)=O)NC1=O)C(=O)N[C@@H](CO)C(=O)N[C@@H](Cc1cnc[nH]1)C(=O)N1CCC[C@H]1C(=O)N[C@@H](C)C(=O)N2` the IC50 [4] was 115 nM and the IC50 [1] was 29.2 nM.
